# In PubChem BioAssay AID651644 (National Center for Advancing Translational Sciences (NCATS), 2012):
# Only a part is listed here, and it is no random draw. Active and inactive are the calls of the source. Calls follow the shape of the dose curve; as a rule, active = well fitted falling curve with a large enough effect; inconclusive = small, poorly fitted or top-dose-only effect; inactive = no such curve, though single readings can be large or run the other way.
# Assay: qHTS Assay for Inhibitors of the HIV-1 protein Vpr; also: nearly all actives have a fitted effect of over 50% in size
# Settings: S. pombe RE007 Vpr strain, BacTiter-Glo ATP luminescence, 24 h; at 92.2 µM (top of the series)
# % is scaled to controls: 0 for no effect and ±100 for the full control effect.
row,Structure (SMILES),"activity change, negative = less growth"
1,N/C(=N\O)c1c(N)no[n+]1[O-],inactive: -4.47%
2,COc1cccc(C(c2nnnn2C(C)(C)C)N2CCC(n3c(=O)[nH]c4ccccc43)CC2)c1OC (stereo not drawn),inactive: 4.47%
3,CCOC(=O)N1CCC(Nc2ccc(C)cc2)CC1,inactive: -24.4%
4,CCCCn1nnnc1C(c1cccc(OC)c1OC)N1CCC(n2c(=O)[nH]c3ccccc32)CC1 (stereo not drawn),inactive: 3.32%
5,O=C(OC1CN2CCC1CC2)C1c2ccccc2C=Cc2ccccc21 (stereo not drawn),inactive: 6.37%
6,CCc1cc(C(=O)NCC2(N3CCCCC3)CCCCC2)sc1C,inactive: -7.6%
7,O=c1[nH]c2ccccc2n1C1CCN(C(c2cccs2)c2nnnn2C2CCCC2)CC1 (stereo not drawn),inactive: 3.17%
8,O=C(O)c1cccc(Nc2c([N+](=O)[O-])cc([N+](=O)[O-])cc2[N+](=O)[O-])c1,inactive: -0.252%
9,O=C(NCC1(N2CCOCC2)CCCCC1)c1cc(Br)ccc1Cl,inactive: -15.3%
10,CCCCn1nnnc1C(c1ccccc1)N1CCC(n2c(=O)[nH]c3ccccc32)CC1 (stereo not drawn),inactive: -0.636%
11,COc1cc(C(=O)NCC2(N3CCOCC3)CCCCC2)cc(OC)c1C,inactive: -7.19%
12,COc1ccc(C(=O)NCC2(N3CCOCC3)CCCCC2)cc1OC,inactive: -14.9%
13,O=c1[nH]c2ccccc2n1C1CCN(C(c2ccnc3ccccc23)c2nnnn2C2CCCC2)CC1 (stereo not drawn),inactive: 5.31%
14,O=c1[nH]c2ccccc2n1C1CCN(C(c2cccs2)c2nnnn2C2CCCCC2)CC1 (stereo not drawn),inactive: -12.2%
15,c1ccc(CN2CCC(Nc3ccccc3)CC2)cc1,inactive: -8.11%
16,O=c1[nH]c2ccccc2n1C1CCN(C(c2ccccc2)c2nnnn2C2CCCC2)CC1 (stereo not drawn),inactive: 0.0669%
17,CCCN1CCC(Nc2cc(OC)cc(OC)c2)CC1,inactive: -5.17%
18,Cc1cc(N(CCCl)CCCl)ccc1C=O,inactive: -27%
19,CN(C)C1(CNC(=O)c2cccc(C#N)c2)CCCCC1,inactive: -7.31%
20,CC(C)(C)n1nnnc1C(c1cccc2ccccc12)N1CCC(n2c(=O)[nH]c3ccccc32)CC1 (stereo not drawn),inactive: 1.78%

row,Structure (SMILES),"activity change, negative = less growth"
1,CC(C)(C)OC(=O)N1CCC(N(C(=O)c2ccccc2)c2ccc(Cl)cc2)CC1,inactive: -1.64%
2,N#Cc1ccc(C(=O)NCC2(N3CCCCC3)CCCCC2)cc1,inactive: -4.25%
3,CCOC(=O)C(CC)C1=NC(C)(C)Cc2ccccc21.O=[N+]([O-])c1cc([N+](=O)[O-])c(O)c([N+](=O)[O-])c1 (stereo not drawn),inactive: 2.43%
4,Cc1ccccc1NC1(C#N)CCN(Cc2ccccc2)CC1,inactive: 5.58%
5,CC(C)(C)n1nnnc1C(c1ccnc2ccccc12)N1CCC(n2c(=O)[nH]c3ccccc32)CC1 (stereo not drawn),inactive: 0.245%
6,COc1ccc(C(c2nnnn2C2CCCCC2)N2CCC(n3c(=O)[nH]c4ccccc43)CC2)cc1 (stereo not drawn),inactive: -6.49%
7,CCN1CCC(Nc2cccc(F)c2)CC1,inactive: 2.37%
8,O=C(NCC1(N2CCCCC2)CCCCC1)c1ccco1,inactive: -2.04%
9,Cn1c(=O)[nH]cc(N(CCCl)CCCl)c1=O,inactive: -25.2%
10,CN(C)c1ccc(C(=O)NCC2(N3CCCCC3)CCCCC2)cc1,inactive: -4.68%
11,O=c1[nH]c2ccccc2n1C1CCN(C(c2ccnc3ccccc23)c2nnnn2C2CCCCC2)CC1 (stereo not drawn),inactive: -7.14%
12,COc1cc(OC)cc(C(=O)NCC2(N3CCCCC3)CCCCC2)c1,inactive: 1.18%
13,CC(=O)N(c1ccccc1)C1CCNCC1,inactive: -9.05%
14,COc1cccc(C(c2nnnn2C2CCCCC2)N2CCC(n3c(=O)[nH]c4ccccc43)CC2)c1OC (stereo not drawn),inactive: 3.37%
15,CCC(c1nnnn1C1CCCCC1)N1CCC(n2c(=O)[nH]c3ccccc32)CC1 (stereo not drawn),inactive: -0.319%
16,Cc1ccc(NC2(C#N)CCN(Cc3ccccc3)CC2)cc1,inactive: -3.38%
17,Cc1ccc(C(=O)NCC2(N3CCCCC3)CCCCC2)o1,inactive: -7.8%
18,Fc1ccccc1NC1CCN(Cc2ccccc2)CC1,inactive: -3.46%
19,CCC(CO)(C(=O)OC1CN2CCC1CC2)c1ccccc1 (stereo not drawn),inactive: 1.74%
20,COc1cc(OC)cc(C(=O)NCC2(N3CCOCC3)CCCCC2)c1,inactive: 17.3%

row,Structure (SMILES),"activity change, negative = less growth"
1,COc1cccc(C(c2nnnn2C2CCCC2)N2CCC(n3c(=O)[nH]c4ccccc43)CC2)c1OC (stereo not drawn),inactive: 1.06%
2,COc1cccc(C(=O)N(c2cc(C)cc(C)c2)C2CCN(C(=O)OC(C)(C)C)CC2)c1,inactive: -21.3%
3,CN1CCC(Nc2ccc(Cl)cc2)CC1,inactive: 2.87%
4,CCOc1ncccc1C(=O)NCC1(N2CCOCC2)CCCCC1,inactive: -1.24%
5,CN1CCC(Nc2ccc(F)c(Cl)c2)CC1,inactive: -5.96%
6,CCCOc1ccc(C(=O)NCC2(N(C)C)CCCCC2)cc1,inactive: -2.56%
7,O=c1[nH]c2ccccc2n1C1CCN(C(c2cc3ccccc3o2)c2nnnn2C2CCCC2)CC1 (stereo not drawn),inactive: 3.29%
8,CC(C)(C)OC(=O)N1CCC(Nc2ccccc2)CC1,inactive: 4.85%
9,O=C(O)C1(Nc2ccccc2)CCN(Cc2ccccc2)CC1,inactive: 6.48%
10,NN(c1ccccc1)C1CCN(CCc2ccccc2)CC1,inactive: -13.9%
11,O=C(NCC1(N2CCOCC2)CCCCC1)c1cc2ccccc2o1,inactive: 3.74%
12,O=c1[nH]c2ccccc2n1C1CCN(C(c2ccccc2OC(F)(F)F)c2nnnn2C2CCCCC2)CC1 (stereo not drawn),inactive: -0.672%
13,O=C(NCC1(N2CCCCC2)CCCCC1)c1ccc(Cl)nc1,inactive: 2.83%
14,Cc1cc(C)cc(N(C(=O)c2ccccc2)C2CCN(C(=O)OC(C)(C)C)CC2)c1,inactive: 12.1%
15,CCOC(=O)N1CCC(Nc2ccc(OC)cc2)CC1,inactive: 0.757%
16,CCCCn1nnnc1C(c1ccc(OC)cc1)N1CCC(n2c(=O)[nH]c3ccccc32)CC1 (stereo not drawn),inactive: -9.53%
17,O=C(OC1CN2CCC1CC2)C1c2ccccc2Oc2ccccc21 (stereo not drawn),inactive: -8.15%
18,O=c1[nH]c2ccccc2n1C1CCN(C(c2cc3ccccc3o2)c2nnnn2C2CCCCC2)CC1 (stereo not drawn),inactive: 8.89%
